PubChem BioAssay AID624099 | ICCB-Longwood – 2012
Test: 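Human genes that papillomavirus E2 requires to repress the HPV18 LCR promoter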 (primary screen). Cells: human C33A cervical carcinoma cells (HPV-negative) stably expressing BPV1 E2 and an HPV18 LCR luciferase reporter. Reagents: siRNA pool against human genes, 40 nM. Time to read-out: 72 h. Measurement: 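Per-well luciferase luminescence, z-scored on each plate against the plate mean and SD with control wells left out, then averaged across three replicate plates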. Reading the numbers: mean z-score and z-score: higher = stronger reporter signal, weaker E2 silencing. Active means: 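Mean z ≥ 2 together with z ≥ 2 in two or more of the three replicates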.
The whole screen tested about 21,000 reagents; below is a part drawn at random. 497 of them (2.4%) count as active. 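Higher z means weaker E2 silencing; only reporter increases were scored, and knock-downs that hurt cell survival may mask genuine repressor factors.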

Silencing of NUDT22 gave: mean z-score 1.9; z-score, replicate A = 1.56; z-score, replicate B = 2.83; z-score, replicate C = 1.3; inactive.
For PRSS41 the deposit lists mean z-score 0.52; z-score, replicate A = 0.41; z-score, replicate B = 0.72; z-score, replicate C = 0.43; inactive.
With knock-down of ZIC5, the record shows mean z-score -0.42; z-score, replicate A = -0.57; z-score, replicate B = -0.57; z-score, replicate C = -0.12; inactive.
Knock-down of NACC2 gave: mean z-score 1.98; z-score, replicate A = 2.09; z-score, replicate B = 2.2; z-score, replicate C = 1.64; inactive.
With knock-down of TMEM138, the record shows mean z-score -0.21; z-score, replicate A = 0.45; z-score, replicate B = -0.78; z-score, replicate C = -0.29; inactive.
Against DPEP1 the deposit lists mean z-score 0.35; z-score, replicate A = 0.13; z-score, replicate B = 0.54; z-score, replicate C = 0.39; inactive.
After knock-down of RNF14 the results were mean z-score -0.3; z-score, replicate A = -0.28; z-score, replicate B = -0.34; z-score, replicate C = -0.28; inactive.

An excerpt taken from the entries so far:
TMEM138: mean z-score = -0.21; z-score, replicate A = 0.45; z-score, replicate B = -0.78; z-score, replicate C = -0.29; call = inactive
DPEP1: mean z-score = 0.35; z-score, replicate A = 0.13; z-score, replicate B = 0.54; z-score, replicate C = 0.39; call = inactive

The results go on.
After knock-down of CDR2, the record shows mean z-score -0.31; z-score, replicate A = -0.46; z-score, replicate B = -0.1; z-score, replicate C = -0.36; inactive.
TAF2 scored mean z-score -1.59; z-score, replicate A = -1.82; z-score, replicate B = -1.2; z-score, replicate C = -1.74; inactive.
Against ZNF787, the values are mean z-score 0.63; z-score, replicate A = 0.51; z-score, replicate B = 0.49; z-score, replicate C = 0.89; inactive.
WDR81 scored mean z-score -0.28; z-score, replicate A = -0.3; z-score, replicate B = -0.32; z-score, replicate C = -0.2; inactive.
RELT scored mean z-score 0.86; z-score, replicate A = 0.7; z-score, replicate B = 0.8; z-score, replicate C = 1.1; inactive.
With knock-down of EXTL1, the record shows mean z-score -0.44; z-score, replicate A = -0.54; z-score, replicate B = -0.55; z-score, replicate C = -0.21; inactive.
After knock-down of VSX1 the results were mean z-score 0.4; z-score, replicate A = 0.59; z-score, replicate B = 0.14; z-score, replicate C = 0.46; inactive.
